PubChem BioAssay AID624099, ICCB-Longwood, 2012

Aim: 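Human genes that papillomavirus E2 requires to repress the HPV18 LCR promoter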 (primary screen)
Cells: human C33A cervical carcinoma cells (HPV-negative) stably expressing BPV1 E2 and an HPV18 LCR luciferase reporter
Reagents: siRNA pool against human genes, 40 nM
Timing: 72 h
Measured: 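HPV18 LCR reporter light per well, converted to plate-wise z-scores that exclude control wells, and averaged over triplicate plates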
Reading the numbers: mean z-score and z-score: higher = stronger reporter signal, weaker E2 silencing
Hit rule: 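Mean z ≥ 2 together with z ≥ 2 in two or more of the three replicates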
The whole screen tested about 21,000 reagents; shown is a random part of them. In the full data, 497 (2.4%) are marked active. 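Higher z means weaker E2 silencing; only reporter increases were scored, and knock-downs that hurt cell survival may mask genuine repressor factors.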 Unmarked entries are inactive.

gene,PubChem SID,mean z-score,"z-score, replicate A","z-score, replicate B","z-score, replicate C"
UTRN,SID134316658,0.47,0.39,0.4,0.63
NCCRP1,SID134329769,-0.66,-0.67,-0.42,-0.89
SLC45A2,SID134317387,0.33,0.51,-0.05,0.54
CCDC122,SID134320721,0.79,0.74,1.33,0.3
TCP1,SID134317005,1.23,1.54,1.14,1.02
PPM1A,SID134314305,-0.32,-0.29,-0.25,-0.4
SLC7A5,SID134310680,0.2,0.19,0.33,0.07
LRATD1,SID134319944,0.84,0.94,0.92,0.66
LOC151443 (retired record),SID134325483,0.26,0,-0.05,0.85
FAM171A1,SID134326536,-2.08,-2.22,-1.95,-2.06
LOC400964 (retired record),SID134327187,2.43 (active),2.92,2.25,2.11
RAB3A,SID134314394,0.23,0.23,0.22,0.23
TRIM33,SID134310869,0.91,0.66,1.02,1.04
SAXO6,SID134317959,0.44,0.66,0.35,0.3
PLCZ1,SID134313183,0.82,1.01,0.85,0.61
OR1F1,SID134313651,2.75 (active),2.64,3.08,2.53
ZNF396,SID134324896,-0.2,-0.18,-0.1,-0.34
EPC1,SID134311762,2.14,2.56,1.91,1.95
PWP2,SID134323685,0.84,0.85,0.79,0.88
IRX4,SID134324497,2.17 (active),1.99,2.19,2.33
ZNF134,SID134323342,-0.42,-0.55,-0.28,-0.43
RXFP1,SID134311088,0.32,0.58,0.1,0.28
NOL10,SID134318649,-0.21,-0.51,0.28,-0.4
RHOBTB2,SID134314017,-0.36,-0.28,-0.33,-0.47
CLEC4M,SID134320287,-0.04,0.1,-0.24,0.03
LOC401495 (retired record),SID134328096,-1.27,-1.65,-1.46,-0.7
GPR87,SID134311047,-0.46,-0.66,-0.22,-0.48
CFAP65,SID134320554,-0.11,0.19,-0.46,-0.05
CFAP65,SID134323101,-0.92,-0.13,-1.33,-1.3
PDE6D,SID134310387,0.08,-0.35,-0.27,0.86
ZNF436-AS1,SID134329240,-0.49,-1.32,-0.22,0.09
PARPBP,SID134324570,-1.15,-1.04,-1.2,-1.21
MAP7D2,SID134320260,-0.73,-0.52,-0.77,-0.9
CYP4F2,SID134313951,0.41,0.59,0.5,0.15
MRPL22,SID134321206,-0.48,-0.42,-0.48,-0.53
SKIC3,SID134324585,-0.79,-0.67,-0.91,-0.81
C22orf15,SID134322524,0.46,0.4,0.34,0.65
ANKMY1,SID134324471,-0.71,-0.66,-0.95,-0.51
VASH2,SID134322759,0.6,0.79,0.96,0.05
RNASE6,SID134321037,-0.3,-0.64,-0.1,-0.18
LOC389778 (retired record),SID134328117,-0.11,-0.02,-0.02,-0.29
MAF,SID134310063,0.04,0.09,-0.14,0.18
TUBA4A,SID134313633,-0.75,-0.85,-0.65,-0.75
UBN2,SID134326367,0.47,0.76,0.44,0.2
SERTAD1,SID134324142,1.24,1.29,1.39,1.04
ZNF786,SID134312252,-1.24,-1.37,-1.04,-1.32
SRPX2,SID134314343,-1.23,-1.31,-1.44,-0.92
GUCY1A1,SID134311966,-0.77,-1.04,-0.88,-0.4
FAM110D,SID134318638,-0.89,-0.92,-1.01,-0.75
FAM167B,SID134319032,0.78,0.75,0.65,0.94
LOC400623 (retired record),SID134328747,-0.01,0.08,-0.01,-0.11
LURAP1L,SID134329415,-0.87,-0.94,-0.95,-0.73
TMED8,SID134325240,-0.18,0,-0.43,-0.1
NELFCD,SID134324452,-1.02,-0.62,-1.33,-1.12
SLC10A2,SID134312425,-1.89,-1.75,-1.68,-2.25
MDH1B,SID134325615,0.63,0.32,0.74,0.81
PIGK,SID134311421,-0.51,-0.58,-0.45,-0.5
LTF,SID134323436,-1.41,-1.31,-1.29,-1.63
TMEM98,SID134323986,-0.21,-0.18,-0.36,-0.09
H2AC15,SID134315770,-0.47,-0.47,-0.8,-0.14
SPANXC,SID134317238,0.88,0.79,0.84,1.03
LOC401513 (retired record),SID134328075,-3.25,-3.52,-3.08,-3.16
EXO1,SID134317355,-1.37,-0.92,-1.5,-1.68
FBXW9,SID134318931,1.22,1.75,0.92,0.98
DBI,SID134311820,0.44,0.25,0.69,0.37
SERPINB1,SID134320240,2.87 (active),2.91,2.57,3.14
ATP8B5P,SID134328103,-0.12,1.09,-1.08,-0.37
LOC401605 (retired record),SID134329145,-0.15,-0.09,0.07,-0.44
CHCHD2P10,SID134328023,1.27,1.16,1.12,1.53
SLC27A6,SID134312548,0.32,0.01,0.08,0.86
ATP8A2,SID134314783,-0.14,-0.35,-0.13,0.07
UBL5,SID134318485,0.38,0.47,0.35,0.34
GPR52,SID134311022,-0.66,-0.44,-0.73,-0.82

Reprinted from above (9 entries):
gene,PubChem SID,mean z-score,"z-score, replicate A","z-score, replicate B","z-score, replicate C"
CYP4F2,SID134313951,0.41,0.59,0.5,0.15
MRPL22,SID134321206,-0.48,-0.42,-0.48,-0.53
SKIC3,SID134324585,-0.79,-0.67,-0.91,-0.81
C22orf15,SID134322524,0.46,0.4,0.34,0.65
ANKMY1,SID134324471,-0.71,-0.66,-0.95,-0.51
VASH2,SID134322759,0.6,0.79,0.96,0.05
RNASE6,SID134321037,-0.3,-0.64,-0.1,-0.18
LOC389778 (retired record),SID134328117,-0.11,-0.02,-0.02,-0.29
MAF,SID134310063,0.04,0.09,-0.14,0.18
